Measurements reported in PubChem BioAssay AID504761 (Drosophila RNAi Screening Center, 2011).
Aim: 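Genome-wide fly cell screen for genes dengue virus requires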 (primary screen). Cell system: D.Mel-2 cells from Drosophila. Reagent: long dsRNA against Drosophila genes. Challenge: infection with dengue virus type 2; dose and infection time not stated. Read-out: 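Per well on two replicate plates, imaging gave the percent of cells positive for viral envelope protein, ranked by infection, and a nuclear count of cells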. Reading the numbers: infection score: higher = more virus-infected cells; cell count: higher = more cells in the well. Call rule: 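Low infection ranks in the two replicates (chance level up to 0.065) followed by a retest with a 1.5-fold or larger significant decrease, p below 0.05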. Meaning of the calls: active = confirmed: knock-down lowers infection; inactive = not picked or not confirmed.
In all, the deposit lists about 22,000 reagents; shown is an unselected part of those with a known target gene and a result. Over the whole deposit, 116 (0.52%) were called active. 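Calls depend on retest data that are not deposited; infection was ranked per plate without normalising between plates; the unit of the infection score is not given.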 Raw values vary from plate to plate and are shown uncorrected. The numbers tell different reagents against one gene apart. A plus sign joins genes that one reagent is predicted to hit. Not stated in the record: the amount of reagent, the time to read-out.

| predicted target | reagent | infection score, replicate 1 | infection score, replicate 2 | cell count, replicate 1 | cell count, replicate 2 | Call |
| --- | --- | --- | --- | --- | --- | --- |
| CG31495 | 1 | 8.81 | 13.6 | 6444 | 6101 | inactive |
| CG31495 | 2 | 22.1 | 16.9 | 5879 | 4900 | inactive |
| PIG-H (Phosphatidylinositol glycan anchor biosynthesis class H) | 1 | 7.72 | 22 | 6429 | 5632 | inactive |
| Tap42 (Two A-associated protein of 42kDa) | 1 | 4.8 | 5.14 | 6057 | 6172 | inactive |
| Tap42 (Two A-associated protein of 42kDa) | 2 | 3.64 | 2.92 | 6133 | 5861 | inactive |
| CG30031 + deltaTry + CG30025 + 1 more | 1 | 1.79 | 2.85 | 6184 | 5852 | inactive |
| CG14515 | 1 | 6.58 | 5.32 | 6702 | 6482 | inactive |
| Adck5 (aarF domain containing kinase 5) | 1 | 0.72 | 0.71 | 6227 | 6295 | inactive |
| Actn (alpha actinin) | 1 | 5.35 | 21.5 | 6561 | 2796 | inactive |
| Actn (alpha actinin) | 2 | 4.64 | 3.87 | 6039 | 5838 | inactive |
| CG34195 | 1 | 12.6 | 8.55 | 7070 | 6607 | inactive |
| GstE1 (Glutathione S transferase E1) | 1 | – | 16.3 | 493 | 3003 | inactive |
| GstE1 (Glutathione S transferase E1) | 2 | 0.38 | 1.08 | 6290 | 6183 | inactive |
| CG17028 | 1 | 2.76 | 3.29 | 6314 | 6147 | inactive |
| CG17028 | 2 | 12.5 | 15.1 | 5859 | 6276 | inactive |
| CG17826 | 1 | 5.54 | 6.66 | 6874 | 6873 | inactive |
| CG17826 | 2 | 13.3 | 35.5 | 4467 | 5072 | inactive |
| ATPsynC (ATP synthase, subunit C) | 1 | 2.86 | 3.43 | 5204 | 5622 | inactive |
| CG8128 | 1 | 1.93 | 10.9 | 6888 | 6454 | inactive |
| Vha100-2 (Vacuolar H[+] ATPase 100kD subunit 2) | 1 | 8.45 | 6.59 | 5820 | 6771 | inactive |
| Vha100-2 (Vacuolar H[+] ATPase 100kD subunit 2) | 2 | 5.78 | 0.27 | 1073 | 369 | inactive |
| CG10321 | 1 | 19.1 | 2.62 | 6743 | 4762 | inactive |
| CG10321 | 2 | 14.2 | 15.9 | 5125 | 5770 | inactive |

Reformatted: entries from further up.
predicted target | reagent | infection score, replicate 1 | infection score, replicate 2 | cell count, replicate 1 | cell count, replicate 2 | Call
CG10321 | 1 | 19.1 | 2.62 | 6743 | 4762 | inactive
CG10321 | 2 | 14.2 | 15.9 | 5125 | 5770 | inactive
